Anti-infective test results gathered from many reports (values: NIAID ChemDB through PubChem).

Common to all: whole-cell or culture tests; organism: Adenovirus; measure: EC50

a–b is a range or a potency band. An empty or dashed field is not shown. ECn: concentration that inhibits the pathogen or its effect by n%. Conditions beyond the fields shown may differ between rows.

structure	strain	cell line	read by	result
CCOc1ccc(-c2onc(N(CC)CC)c2Cc2c(N(CC)CC)noc2-c2ccc(O)cc2O)c(O)c1	ATCC VR10	VERO	plaque count	>17 µM
COc1cc(O)c(/C=N/N=C(\N)NO)c(OC)c1.Cc1ccc(S(=O)(=O)O)cc1	WT 300 (TYPE 5)	A549	plaque count	100 µM
CCN(CC)c1cc(-c2ccc(OC)cc2O)on1	ATCC VR10	VERO	plaque count	>381 µM
CSc1nsc(C)c1C#N	TYPE 2	HEP-2	plaque count	>100 µM
Nc1ncnc2c1ncn2C[C@@H](CO)OCP(=O)(O)O	TYPES 1-8	HEL	cytopathic effect	0.6–2.5 µg/mL
O=C(O)CC(NC(=O)CNC(=O)c1cccc(NC2=NCCCCC2)c1)c1cccnc1	TYPE 2	HeLa	-	>100 µM
COc1cc(OC)c(/C=N/N=C(/N)NO)c(OC)c1.Cc1ccc(S(=O)(=O)O)cc1	ATCC VR18 (TYPE 17)	VERO	plaque count	>50 µM
NS(=O)(=O)c1ncnc2c1ncn2[C@@H]1O[C@H](CO)[C@@H](O)[C@@H]1O	TYPE 2	-	cytopathic effect	>320 µM
CSc1nsc(-c2ccccc2)c1C#N	TYPE 2	HEP-2	plaque count	>20 µM
CCN(CC)c1noc(-c2ccc(O)cc2O)c1Cc1c(N(CC)CC)noc1-c1ccc(OC)cc1O	ATCC VR10	VERO	plaque count	>3.5 µM
CSc1nsc(-c2ccccn2)c1C#N	TYPE 2	HEP-2	plaque count	>50 µM
NC(N)=Nc1cccc(C(=O)NCC(=O)NC(CC(=O)O)c2cccs2)c1	TYPE 2	HUMAN 293/beta5	-	>100 µM
CCN(CC)c1cc(-c2ccc(OC)cc2OC)on1	ATCC VR10	VERO	plaque count	>362 µM
NS(=O)(=O)c1ncnc2c1ncn2[C@H]1C[C@H](O)[C@@H](CO)O1	TYPE 2	-	cytopathic effect	>320 µM
CC(C)CS[C@H]1C[C@@H](n2cnc3c(N)ncnc32)[C@H](O)[C@@H]1O	TYPE 1	A549	cytopathic effect	>100 µg/mL
O=c1[nH]c(=O)n([C@H]2C[C@H](O)[C@@H](CO)O2)cc1/C=C/Br	TYPES 1-8	HEL	cytopathic effect	>125 µg/mL
NS(=O)c1ncnc2c1ncn2[C@@H]1O[C@H](CO)[C@@H](O)[C@@H]1O	TYPE 2	-	cytopathic effect	>320 µM
Nc1ccn([C@H]2CC[C@@H](CO)O2)c(=O)n1	TYPE 8	HEP-2	-	4 µg/mL
N#Cc1c(-c2ccccc2)nsc1Cl	TYPE 2	HEP-2	plaque count	>20 µM
NC(=O)Nc1cccc(C(=O)NCC(=O)NC(CC(=O)O)c2cccnc2)c1	TYPE 2	HeLa	-	>100 µM
COc1nsc(-c2ccccc2)c1C#N	TYPE 2	HEP-2	plaque count	>25 µM
CC(=O)N[C@H]1C[C@@H](n2cnc3c(N)ncnc32)[C@H](O)[C@@H]1O	TYPE 1	HFF	-	>100 µg/mL
NCC(=O)N[C@@H](CCCN=C(N)N)C(=O)NCC(=O)N[C@@H](CC(=O)O)C(=O)N[C@@H](CO)C(=O)N1CCC[C@H]1C(=O)O	TYPE 2	HUMAN 293/beta5	-	2000 µM
Cc1ccc(S(=O)(=O)O)cc1.N/C(=N/N=C/c1ccc2c(c1)OCO2)NO	ATCC VR18 (TYPE 17)	VERO	plaque count	>50 µM
CCCCOc1ccc(-c2snc(SC)c2C#N)cc1	TYPE 2	HEP-2	plaque count	>50 µM
C#C[C@@H](CC(=O)O)NC(=O)CNC(=O)c1cccc(N=C(N)N)c1	TYPE 2	HeLa	-	>100 µM

The last 2 rows once more:

structure,strain,cell line,read by,result
CCCCOc1ccc(-c2snc(SC)c2C#N)cc1,TYPE 2,HEP-2,plaque count,>50 µM
C#C[C@@H](CC(=O)O)NC(=O)CNC(=O)c1cccc(N=C(N)N)c1,TYPE 2,HeLa,-,>100 µM